Results reported in PMC3630091, “A Mechanistic Paradigm for Broad-Spectrum Antivirals that Target Virus-Cell Fusion” (PLoS Pathogens, 2013).

Tested on: NDV
Type: cell-based, Newcastle disease virus
Conditions: ratio CC50 / IC50

| Structure (SMILES) | TI (NDV) |
| --- | --- |
| CCN1C(=S)O/C(=C\c2ccc(-c3ccccc3OC)o2)C1=S [JL103, (Z) 3-Ethyl-5-[5-(2-methoxyphenyl)-furan-2-ylmethylene]oxazolid-ine-2,4-dithione] | 1,604 |
| CCN1C(=S)O/C(=C\c2ccc(-c3ccc(OC)cc3OC)o2)C1=S [JL109, (Z)-5-((5-(2,4-dimethoxyphenyl)furan-2-yl)methylene)-3-ethyloxazolidine-2,4-dithione] | 2,239 |
| CCN1C(=S)O/C(=C\c2ccc(-c3ccc(N(C)C)cc3)o2)C1=S [JL118, (Z)-5-((5-(4-(dimethylamino)phenyl)furan-2-yl)methylene)-3-ethyloxazolidine-2,4-dithione] | 17,643 |
| CCN1C(=S)O/C(=C\c2ccc(-c3c(OC)cc(OC)cc3OC)o2)C1=S [JL122, (Z)-3-ethyl-5-((5-(2,4,6-trimethoxyphenyl)furan-2-yl)methylene)oxazolidine-2,4-dithione] | 11,422 |
| C=CCN1C(=O)/C(=C/c2ccc(-c3ccccc3)o2)SC1=S [LJ001, (Z)-3-allyl-5-((5-phenylfuran-2-yl)methylene)-2-thioxothiazolidin-4-one] | 66 |
